Data reported in patent publication EP1922329B1.

target: protective antigen (PA) of Bacillus anthracis (Bacillus anthracis) (UniProt P13423); assay: cell-based or functional assay

| Substance | IC50, RAW macrophage protection assay 07/28/05 | Molar ratio of antitoxin to PA at the IC50, assay 07/28/05 | IC50, RAW macrophage protection assay 07/27/05 | Molar ratio of antitoxin to PA at the IC50, assay 07/27/05 | IC50, RAW macrophage protection assay 07/20/05 | Molar ratio of antitoxin to PA at the IC50, assay 07/20/05 |
| --- | --- | --- | --- | --- | --- | --- |
| CMG2-IgG variant 3 (V3) (from UniProt P58335 34-218) (Fc fusion) | 0.1 µg/mL | 0.91 | – | – | – | – |
| CMG2-IgG Variant 3 expressed together with CMG2-kappa (V3/K) (from UniProt P58335 34-218; P58335 34-232) (Fc fusion) | – | – | 0.032 µg/mL | 0.18 | – | – |
| CMG2-IgG variant 2a (V2a) (from UniProt P58335 34-232; P01857 99-330) (Fc fusion) | 0.067 µg/mL | 0.72 | – | – | – | – |
| CMG2-IgG variant 2b (V2b): VWA/I domain of CMG2 plus Cγ2/Cγ3 of IgG (from UniProt P58335 34-218) (Fc fusion) | 0.028 µg/mL | 0.31 | – | – | 0.041 µg/mL | 0.45 |
| CMG2-IgG (original construct: CMG2 amino acids 34-232 fused to the constant region of human IgG1) (from UniProt P58335 34-232) (Fc fusion) | 0.224 µg/mL | 2 | – | – | 0.242 µg/mL | 2.16 |
| CMG2-IgG variant 1 (V1) (from UniProt P58335 34-218) (Fc fusion) | 0.197 µg/mL | 1.8 | – | – | – | – |
| CMG2-IgG Variant 1 expressed together with CMG2-kappa (V1/K) (from UniProt P58335 34-218; P58335 34-232) (Fc fusion) | – | – | 0.044 µg/mL | 0.25 | – | – |
